We go through 1 compound from PMC11796224, “Merck Open Global Health Library in vitro screening against Schistosoma mansoni identified two new substances with antischistosomal activities for further development” (Parasites & Vectors, 2025).

Not every entry of the source has a single result; some have several. They are shown here; other results are not. There may be further records. Results that share an entry differ, and nothing given here explains why; dose, time, organism, isomer or construct need not be as stated for each record.

The subject of this assay is adult S. mansoni couples. Put plainly: In vitro screening of OGHL compounds and analogues against adult S. mansoni couples (Giessen). It counts as cell-based, Schistosoma mansoni. The following applies: 10 µM, scale 0-4 (3 = normal activity); tested form: Na salt.

Take `COc1ccc(CNc2nc(-c3ccc(C(=O)O)nc3)nc3sc4c(c23)CCCC4)cc1Cl`: the “Motility score after 24 h” value was < 2 and 1.9.
